Anti-infective test results gathered from many reports (values: NIAID ChemDB through PubChem).

Shared fields: toxicity to cultured cells; cells: HEK 293; read-out: CC50

CCn is the concentration with n% toxicity to the cells. Rows are shuffled and stem from different studies.

{"compound": "O=c1c2cc(O)c(O)cc2oc2cc(O)cc(O)c12", "method": "sulforhodamine / absorbance", "result": ">50 µM"}
{"compound": "C[C@@H]1CCC2[C@@H](C)[C@@H](OCCNCCN3CCCCC3)O[C@@H]3OC4(C)CCC1[C@@]23OO4", "method": "ATP / luminescence", "result": ">13.3 µM"}
{"compound": "CC[C@H](CC[C@@H](C)[C@H]1CCC2C3CC=C4C[C@@H](O)CC[C@]4(C)[C@@]3(C)CC[C@@]21C)C(C)C", "method": "ATP", "result": ">26 µM"}
{"compound": "CC(C)CNCCO[C@H]1O[C@@H]2OC3(C)CCC4[C@H](C)CCC([C@H]1C)[C@]42OO3", "method": "ATP / luminescence", "result": ">16 µM"}
{"compound": "CN1CCc2c[nH]c3c2C1=CC(=O)C3=O", "method": "resazurin", "result": ">120 µM"}
{"compound": "C/C(=C\\C=C\\C(C)[C@H]1CC[C@@]2(C)[C@@H]3CC[C@H]4C(C)(C)C(=O)CC[C@]4(C)C3=CC[C@]12C)C(=O)O", "method": "sulforhodamine / absorbance", "result": ">50 µM"}
{"compound": "Cn1cc2c3c1C(=O)C(N/C=C/c1ccc(O)cc1)=CC3=[N+](C)CC2", "method": "resazurin", "result": "2 µM"}
{"compound": "CC1(C)CC[C@]2(C(=O)O)CC[C@]3(C)C(=CC[C@@H]4[C@@]5(C)C[C@@H](O)[C@H](O)C(C)(C)[C@@H]5CC[C@]43C)[C@@H]2C1", "method": "ATP", "result": ">26 µM"}
{"compound": "CC(C)=CC[C@H]1C[C@]2(C[C@H]3CCC(C)(C)C=C3C)C(=O)C3=C(OC(C)(C)CC3)[C@@](C(=O)c3ccccc3)(C2=O)C1(C)C", "method": "sulforhodamine / absorbance", "result": ">50 µM"}
{"compound": "CCCCCCCC(=O)OC1O[C@@H]2OC3(C)CCC4[C@H](C)CCC([C@H]1C)[C@]42OO3", "method": "ATP / luminescence", "result": ">26 µM"}
{"compound": "CC/C=C\\C[C@@H]1[C@@H](CC(=O)OC)CC[C@@H]1O", "method": "ATP", "result": ">26 µM"}
{"compound": "COc1cc(-c2ccccc2)c(OC)c(OC)c1O", "method": "sulforhodamine / absorbance", "result": ">50 µM"}
{"compound": "COc1cc([C@@H]2c3cc4c(cc3C[C@H]3COC(=O)[C@@H]32)OCO4)cc(OC)c1OC", "result": "14.3 µg/mL"}
{"compound": "CC1CCCC23CC4C(CC12C)C4(C)C3", "method": "ATP", "result": ">26 µM"}
{"compound": "Cn1cc2c3c1C(=O)c1[nH]cc(-c4ccc(O)cc4)c1C3=[N+](C)CC2", "method": "resazurin", "result": "3.6 µM"}
{"compound": "CC/C=C\\C[C@H]1C(=O)CC[C@@H]1CC(=O)O", "method": "ATP", "result": ">26 µM"}
{"compound": "CC(C)=CC[C@H]1C[C@@]2(C[C@H]3CCC(C)(C)C=C3C)C(=O)[C@](C(=O)c3ccccc3)(C(=O)C3=C2OC(C)(C)C=C3)C1(C)C", "method": "sulforhodamine / absorbance", "result": ">50 µM"}

2 of the rows above, restated:

{"compound": "CN1CCc2c[nH]c3c2C1=CC(=O)C3=O", "method": "resazurin", "result": ">120 µM"}
{"compound": "O=c1c2cc(O)c(O)cc2oc2cc(O)cc(O)c12", "method": "sulforhodamine / absorbance", "result": ">50 µM"}